Results of unrelated studies side by side (data: NIAID ChemDB).

Shared fields: enzyme or target tests; agent: Hepatitis C virus

ICn is the concentration giving n% inhibition. Inhibition is in % at the dose shown (toxicity tests: loss of growth or viability). An empty or dashed field is not shown. a–b is a range or a potency band. Rows are shuffled and stem from different studies.

compound	tested at	read-out	method	protein	value
O=C(O)CCC(=O)N[C@H](C(=O)N[C@@H](CCC(=O)O)C(=O)N[C@H](C(=O)N[C@@H](CS)C(=O)O)C1CCCCC1)C(c1ccccc1)c1ccccc1	-	IC50	-	Nonstructural protein 3 NTPase/helicase	>16.7 µM
CC[C@@H](C=O)NC(=O)[C@@H]1C[C@@H](OCc2ccccc2)CN1C(=O)[C@@H](NC(=O)c1c2c(nc3ccccc13)CCCC2)C(C)C	-	Ki	-	NS3 protease	1–100 µM
CCNS(=O)(=O)Oc1cc(C(C)(C)C)c(SC2=C(O)CC(CCc3cccc(O)c3)(C3CCCC3)OC2=O)cc1C	-	IC50	-	Nonstructural protein 5B	>50 µM
O=C(CCCCCCCCCC(=O)Nc1ccc(-c2nc3ccccc3[nH]2)cc1)Nc1ccc(-c2nc3ccccc3[nH]2)cc1	-	IC50	-	Nonstructural protein 3 NTPase/helicase	0.7 µM
O=C(O)c1cc2nc(-c3ccccc3)cc(-c3cccc(Cl)c3)n2n1	-	IC50	-	RNA-dependent RNA polymerase	>10 µM
COC(=O)C1=C(C(=O)OC)C2N(C)c3ccc(OC)cc3[C@@]23C[C@@H](C(=O)OC)N(C(=O)CC(C)C)C3=N1	-	IC50	AlphaScreen	Core106 dimerization	9.3 µM
O=C(O)c1cc2nc(-c3ccccc3)cc(-c3ccc(-c4ccccc4)cc3)n2n1	-	IC50	-	RNA-dependent RNA polymerase	1–10 µM
CC[C@H](C)[C@H](NC(=O)[C@H](CC(C)C)NC(=O)CCCC(=O)O)C(=O)N[C@@H](CC1CCCCC1)C(=O)NC1(C(=O)O)CC1	83.5 µM	inhibition	-	Nonstructural protein 3 NTPase/helicase	3%
CC[C@@H](C=O)NC(=O)[C@@H]1C[C@@H](OCc2ccc(OCc3ccccc3)c(OCc3ccccc3)c2)CN1C(=O)[C@@H](NC(=O)[C@@H](NC(=O)c1cnccn1)C(C)C)C(C)C	-	Ki	-	NS3 protease	1–100 µM
CC(C)[C@H](NC(=O)[C@@H](NC(=O)CCC(=O)O)C1CCCCC1)C(=O)N[C@@H](CCC(=O)O)C(=O)NC1(C(=O)O)CC1	-	IC50	-	Nonstructural protein 3 NTPase/helicase	>83.5 µM
CC[C@@H](C=O)NC(=O)[C@@H]1C[C@@H](OCc2ccccc2)CN1C(=O)[C@@H](NC(=O)[C@@H](NC(=O)c1cnccn1)C(C)C)C(C)C	-	Ki	-	NS3 protease	1–100 µM
CCCN(C1=C(O)CC(C2CCCC2)(C2CCCC2)OC1=O)c1cccc(NS(=O)(=O)c2cccs2)c1	-	IC50	-	Nonstructural protein 5B	10–50 µM
CC[C@@H](C=O)NC(=O)[C@@H]1C[C@@H](OC(=O)Nc2cccc([N+](=O)[O-])c2)CN1C(=O)[C@@H](NC(=O)[C@@H](NC(=O)c1cnccn1)C(C)C)C(C)C	-	Ki	-	NS3 protease	1–100 µM
CCC(C)[C@H](NC(=O)[C@@H](NC(=O)CCC(=O)O)C1CCCCC1)C(=O)N[C@@H](CCC(=O)O)C(=O)NC1(C(=O)O)CC1	167 µM	inhibition	-	Nonstructural protein 3 NTPase/helicase	28%
CC[C@@H](C=O)NC(=O)[C@@H]1C[C@@H](OCc2ccccc2)CN1C(=O)[C@@H](NC(=O)[C@H](CCc1ccccc1)NC(=O)c1cnccn1)C(C)C	-	Ki	-	NS3 protease	1–100 µM
O=C(O)c1cnn2c(C3CCCCC3)c(-c3ccc(Cl)c(Cl)c3)cnc12	-	IC50	-	RNA-dependent RNA polymerase	1–10 µM
Cc1cc(SC2=C(O)CC(CCC(C)C)(C3CCCC3)OC2=O)c(C(C)(C)C)cc1CO	-	IC50	-	Nonstructural protein 5B	>50 µM
COC(=O)C1=C(C(=O)OC)C2N(CCOCCN3c4ccccc4[C@]45CC(=O)N(Cc6ccccc6)C4=NC(C(=O)OC)=C(C(=O)OC)C35)C3C=CC=CC3[C@@]23CCC(=O)N(Cc2ccccc2)C3=N1	-	IC50	AlphaScreen	Core106 dimerization	0.1 µM
Cn1c(Cc2nc3ccc(C(N)=O)cc3[nH]2)nc2ccc(C(=O)NC(CP(=O)(O)O)C(=O)O)cc21	-	Ki	-	NS3/NS4A serine protease	0.027–1 µM
CC(C)C[C@H](NC(=O)CCC(=O)O)C(=O)N[C@@H](CCC(=O)O)C(=O)N[C@@H](CCC(=O)O)C(=O)NC1(C(=O)O)CC1	167 µM	inhibition	-	Nonstructural protein 3 NTPase/helicase	21%
O=C1C=C(O)CC(CCCc2ccccc2)(C2CCCC2)O1	-	IC50	-	Nonstructural protein 5B	>50 µM
CSCC[C@H](NC(=O)[C@H](CCC(=O)O)NC(=O)[C@@H](N)CC(=O)O)C(=O)N[C@@H](CCC(=O)O)C(=O)N[C@@H](CCC(=O)O)C(=O)N[C@@H](CS)C(=O)O	-	Ki	-	NS3/NS4A serine protease	0.6 µM
CC[C@@H](C=O)NC(=O)[C@@H]1C[C@@H](OCc2ccccc2)CN1C(=O)[C@@H](NC(=O)c1cccc(OC)c1OC)C(C)C	-	Ki	-	NS3 protease	>100 µM
NC(=O)c1cnn2c(-c3cccc(C(F)(F)F)c3)ccnc12	-	IC50	-	RNA-dependent RNA polymerase	>10 µM
CC(C)C[C@H](NC(=O)CCC(=O)O)C(=O)N[C@@H](CCC(=O)O)C(=O)N[C@@H](CCC(=O)O)C(=O)N[C@@H](CS)C(=O)O	167 µM	inhibition	-	Nonstructural protein 3 NTPase/helicase	100%
c1cc(-c2cnc3c(-c4nn[nH]n4)cnn3c2C2CCCCC2)ccc1OC1CCCCC1	-	IC50	-	RNA-dependent RNA polymerase	1–10 µM
CC[C@@H](C=O)NC(=O)[C@@H]1C[C@@H](OCc2ccccc2)CN1C(=O)[C@@H](NC(=O)c1c(-c2ccccc2)noc1C)C(C)C	-	Ki	-	NS3 protease	>100 µM